# Laboratory results published in patent US9724383B2, “Stabilized trimeric HIV-1 GP41 fusion inhibitor polypeptides comprising the N-terminal heptad repeat (NHR) and foldon (FD) trimerization motif” (New York Blood Center, Inc., priority 2009, dated 2017).
# Biological target: CHR-peptide C34 (Human immunodeficiency virus type 1 group M subtype B, UniProt P04578)
# Assay type: binding, HIV-1
# Details: thermal denaturation monitored at 222 nm, 20-98° C.
# Protocol: All the N-peptides were diluted in ddH2O (pH 7.0) and all the C-peptides or the mixture of the N- and C-peptides were diluted in 50 mM sodium phosphate and 150 mM NaCl (PBS, pH 7.2) to a final concentration of 10 μM. The individual peptides and their mixtures were incubated in a 37° C. water bath for 0.5 h before testing. […] The α-helicity was calculated from the CD signal by dividing the mean residue ellipticity at 222 nm by the value expected for 100% helix formation (i.e., 33,000° cm^2 dmol^−1) according to previous studies. Thermal denaturation of the samples was monitored at 222 nm by applying a temperature gradient from 20° C. to 98° C. with a 2-degree interval, an equilibration time of 1.5 min, and an averaging time of 60 s. The midpoint of the thermal unfolding transition (Tm) values was calculated using Jasco software utilities as described previously.
sequence,measurement,value
IEAQQHLLQLTVWGIKQLQARILAVERYGYIPEAPRDGQAYVRKDGEWVLLSTFL [N28Fd],Tm value of complex with C34,62.2 °C
